A mixed list of measured activities; the numbers were collected in NIAID ChemDB.

Shared fields: target-level tests; agent: HIV-1; target: gp120

An empty or dashed field is not shown. ICn is the concentration giving n% inhibition. Percent inhibition refers to the dose given; in toxicity tests it is the harm to the cells. Lines come from different laboratories, so protocols vary.

compound	dose	strain	measure	method	value
CC[C@H](C)/C=C(C)/C=C/C1=CC2=C(Cl)C(=O)[C@](C)(O)C(=O)C2=CO1			IC50		2.6 µg/mL
CC[C@H](C)/C=C(C)/C=C/C1=CC2=C(Cl)C(=O)[C@@]3(C)OC(=O)C(C(C)=O)=C3C2=CO1	300 µM		inhibition	ELISA	0%
CC[C@H](C)C[C@H](C)C(=O)O[C@@]1(C)C(=O)C2=COC(/C=C/C(=O)O)=CC2=C(Cl)C1=O			IC50	ELISA	>260 µM
Cc1ccc(-c2ccc3c(c2)C=C(C(=O)Nc2ccc(C[N+](C)(C)C4CCOCC4)cc2)CCC3)cc1	10 µM	JR-FL	inhibition	antigen	0%
CCCCCCCCCCCCCCCC(=O)N(CCCCCCCCCCC(=O)O)CC(O)C(O)C(O[C@@H]1O[C@H](CO)[C@H](O)[C@H](O)[C@H]1O)C(O)CO			IC50	radiometric	0.7 µM
CC[C@H](C)/C=C(C)/C=C/C1=CC2=CC(=O)[C@](C)(O)[C@H](OC(C)=O)[C@H]2CO1			IC50	ELISA	>270 µM
CCC(C)/C=C(C)/C=C/C(=O)CC1=C(Cl)C2=C(C(C)=O)C(=O)O[C@]2(C)c2oc(=O)c(C(C)=O)cc21			IC50		>100 µg/mL
O=C(OCC1OC(OCCc2ccccc2)C(O)C(O)C1O)c1cc(O)c(O)c(O)c1	9 µg/mL		inhibition	binding	~59%
NOCc1c(F)cccc1Cl	100 µg/mL		inhibition	ELISA	21.7%
CC[C@H](C)/C=C(C)/C=C/C1=CC2=C(Cl)C(=O)[C@](C)(OC(C)=O)C(=O)C2=CO1	250 µM		inhibition	ELISA	0%
O=C(O[C@@H]1Cc2c(O)cc(O)cc2O[C@@H]1c1ccc(O)c(O)c1)c1cc(O)c(O)c(O)c1	0.4 µg/mL	IIIB	inhibition	ELISA	37%
O=C1c2c(O)cc(O)cc2O[C@H](c2ccc(O)cc2)[C@H]1O	20 µg/mL		inhibition	ELISA	72%
CC[C@H](C)/C=C(C)/C=C/C1=CC2=C(Cl)C(=O)[C@@]3(C)OC(=O)C(C(C)=O)=C3C2=CO1			IC50	ELISA	>240 µM
O=C(/C=C/c1ccc(O)c(O)c1)O[C@H]1[C@H](O)C[C@](O)(C(=O)O)C[C@H]1OC(=O)/C=C/c1ccc(O)c(O)c1	40 µg/mL		inhibition	ELISA	>80%
CC[C@H](C)/C=C(C)/C=C/C1=CC2=CC(=O)[C@]3(C)OC(=O)C(C(C)=O)C3C2CO1			IC50	ELISA	>260 µM
[B]C(=O)N[C@H](CC[C@@H]1O[C@H](CO)[C@H](O)[C@H](O)[C@H]1O)C(=O)OC	1000 µg/mL		inhibition	ELISA	0%
O=C(O[C@@H]1Cc2c(O)cc(O)cc2O[C@@H]1c1cc(O)c(O)c(O)c1)c1cc(O)c(O)c(O)c1	50 µM		inhibition	fluorescence	34.4%
O=C(CO)N[C@@H]([C@@H](O)[C@H](O)[C@H](O)CO)[C@@H](O)C(=O)C(=O)O	20 µM	MN	inhibition		9.8%
CC[C@H](C)CC(C)CCC1=CC2=C(Cl)C(=O)[C@]3(C)OC(=O)[C@@H](C(C)=O)[C@@H]3C2=CO1			IC50	ELISA	>260 µM
O=C1c2c(O)cc(O[C@@H]3C[C@@H](O)[C@H](O)[C@@H](CO)O3)cc2O[C@H](c2ccc(O)cc2)[C@H]1O	80 µg/mL		inhibition	ELISA	>80%
CC[C@H](C)C=C(C)/C=C/C1=CC2=C(Cl)C(=O)[C@](C)(O)[C@H](CC(C)=O)C2=CO1			IC50		1.51 µg/mL